This note sets out measurements from publication PMC12667308 (Drug Delivery, 2025).

The target in the test is α7 nAChR-expressing oocytes (Homo sapiens, UniProt P36544). Briefly: TEVC ARA-evoked outward current in the absence of agonist. It counts as cell-based.

Turning to methyllycaconitine citrate salt, for the setting “PNU-120596 3 µM, MLA 10 nM or Meca 10 µM pre- or coapplied 10 s, YM-254890 2–20 µM bath-applied 1–24 hour”, the “effect on the outward current evoked by 100 µM ARA” value was “Neither pre- nor coapplication with either antagonist could mitigate”. Further, the “concentration required to overcome ACh stimulation” value (α7 nAChR-expressing oocytes, TEVC) came to 10 nM.
